Legend:
[1] = system: Mycobacterium abscessus IDR-1400012185; test: Broth microdilution MIC assay, M. abscessus; assay type: cell-based; design: unit not given here; settings: unit not given
[2] = system: Mycobacterium tuberculosis H37Rv; test: Microplate Alamar Blue MIC assay, H37Rv; assay type: cell-based

## COC1C=COC2(C)Oc3c(C)c(O)c4c(c3C2=O)C2=NC3(CCN(c5ccc(F)cc5NC(=O)C(Cc5ccccc5)NC(=O)c5ccccc5F)CC3)NC2=C(NC(=O)C(C)=CC=CC(C)C(O)C(C)C(O)C(C)C(O)C1C)C4=O (centres unmarked)
[1]
  antibacterial activity M. abscessus IDR-1400012185: 0.39
[2]
  antibacterial activity M. tuberculosis H37Rv MIC: 0.024 µg/mL

Reference: patent publication US20250082761A1, “DUAL-TARGETED RNA POLYMERASE INHIBITORS: CONJUGATES OF BENZOXAZINO- AND SPIRO-RIFAMYCINS WITH N ALPHA-AROYL-N-ARYL-[…]” (priority 2021, published 2025)
